In PMC9605875, “Structure of trimeric pre-fusion rabies virus glycoprotein in complex with two protective antibodies” (2022) one finds MFI after binding data, which are given here for two substances.

This test has as its target RVC20 IgG conjugated to Alexa Fluor 647. The test is described as follows: Flow cytometry (BD LSRFortessa), median fluorescence intensity. The settings on record: pH 5.8-7.4, room temperature, PBS at neutral pH, 130 mM NaCl at pH 5.8, PBS (pH 7.3 in Methods, 7.4 in the Figure 2 legend), 50 mM Bis-Tris.

On to “RABV-G wild type, untagged, cell-surface expressed”, for which the MFI after binding at pH 5.8 as a proportion of that at pH 7.4 (ratio of MFI (pH 5.8 / pH 7.4)) was 0.11.

As to “RABV-G wild type, C-terminal GFP-His6 fusion, cell-surface expressed”, the MFI after binding at pH 5.8 as a proportion of that at pH 7.4 (ratio of MFI (pH 5.8 / pH 7.4)) was found to be 0.12.
